Results of unrelated studies side by side (data: NIAID ChemDB).

Common to all: growth or infection tests; agent: HIV-1; cells: CEM; method: syncytia; measure: fold resistance

Blank or dashed fields: not listed here.

SMILES	mutations	strain or isolate	result
Nc1ncnc2c1ncn2CC(CF)OCP(=O)(O)O	RT-L100I Y181C	IIIB TIBO R82913 STR-1 (RT L100I Y181C)	1
CC(C)=CCN1Cc2cc(Cl)cc3[nH]c(=S)n(c23)C[C@@H]1C	RT-L100I	IIIB BHAP(RT-L100I)	13.5
CC(C)Nc1cccnc1N1CCN(C(=O)c2cc3ccccc3[nH]2)CC1	RT-E138K	IIIB	2.25
CCOCn1c(Sc2ccccc2)c(CC)c(=O)[nH]c1=O	RT-Y181C	IIIB E-EBU(RT-Y181C)	≥4000
CCOCn1c(Cc2ccccc2)c(C(C)C)c(=O)[nH]c1=O	RT-L100I	IIIB	7
Nc1nc2c(ncn2[C@H]2CC[C@@H](CO)O2)c(=O)[nH]1	RT-K103N	TIBO-2(RT-K103N)	1
O=c1[nH]cnc2c1ncn2[C@H]1CC[C@@H](CO)O1	RT-V106A	IIIB	2.7
CC(C)=CCN1Cc2cccc3[nH]c(=S)n(c23)C[C@@H]1C	RT-E138K	IIIB TSAO-T(RT-E138K)	4.5
Cc1cn([C@@H]2O[C@H](CO[Si](C)(C)C(C)(C)C)C3(OS(=O)(=O)C=C3N)[C@H]2O[Si](C)(C)C(C)(C)C)c(=O)n(C)c1=O	RT-V106A	IIIB	10.45
Cc1cn([C@@H]2O[C@H](CO[Si](C)(C)C(C)(C)C)C3(OS(=O)(=O)C=C3N)[C@H]2O[Si](C)(C)C(C)(C)C)c(=O)n(C)c1=O	RT-Y181I	Pyr/BHAP(RT-Y181I)	750
Cc1c(N)nc(N)nc1OCCOCP(=O)(O)O	RT-M41L V118I L210W T215Y	Clinical isolate C19	8.5
Nc1ccn([C@H]2CC[C@@H](CO)O2)c(=O)n1	RT-L100I	IIIB-BHAP)(0.1)(RT-L100I	1
Cc1occc1C(=S)Nc1ccc(Cl)c(/C=N/OC(C)(C)C)c1	RT-Y188L	IIIB	13
CC(C)Nc1cccnc1N1CCN(C(=O)c2cc3cc(NS(C)(=O)=O)ccc3[nH]2)CC1	RT-V106A P225H	Quin-0.1 (RT V106A P225H)	3.5
Nc1ncnc2c1ncn2CCOCP(=O)(O)O	RT-L100I	IIIB-TIBO(0.5)(RT-L100I)	1.07
C[C@H](COc1cc(N)nc(N)n1)OCP(=O)(O)O	RT-K65R S68G T69I V75T Q151M	Clinical isolate DE434.4	≥10.8
O=c1[nH]cnc2c1ncn2[C@H]1CC[C@@H](CO)O1	RT-L100I	IIIB-BHAP)(0.1)(RT-L100I	2.2
N#CCN1C(=O)N(Cc2ccccc2)S(=O)(=O)c2cscc21	RT-L100I		6.5
O=C1N(Cc2ccccc2)c2cscc2S(=O)(=O)N1Cc1ccccc1	RT-L100I	IIIB	≥5.56
CCc1cc(NCc2nc3c(Cl)ccc(Cl)c3o2)c(=O)[nH]c1C	RT-Y181C	IIIB-TSAO-m3T(10)(RT-Y181C)	2.33
Cc1cn([C@@H]2O[C@H](CO[Si](C)(C)C(C)(C)C)C3(OS(=O)(=O)C=C3N)[C@H]2O[Si](C)(C)C(C)(C)C)c(=O)n(C)c1=O	RT-K103N	IIIB	5.75
Nc1ncnc2c1ncn2CCOCP(=O)(O)O	RT-M41L V118I L210W T215Y	Clinical isolate C19	16.6
Cc1cn([C@@H]2O[C@H](CO[Si](C)(C)C(C)(C)C)[C@@]3(OS(=O)(=O)C=C3N)[C@H]2O[Si](C)(C)C(C)(C)C)c(=O)[nH]c1=O	RT-E138K	IIIB TSAO-T(RT-E138K)	133
Cc1cn([C@@H]2O[C@H](CO[Si](C)(C)C(C)(C)C)C3(OS(=O)(=O)C=C3N)[C@H]2O[Si](C)(C)C(C)(C)C)c(=O)n(C)c1=O	RT-Y181C	IIIB E-EBU(RT-Y181C)	>1670
Cc1occc1C(=S)Nc1ccc(Cl)c(C(=O)OC2CCCC2)c1	RT-K103N	IIIB	140
CCOCn1c(Sc2ccccc2)c(CC)c(=O)[nH]c1=O	RT-C181I	IIIB	69.3
N#CCN1C(=O)N(Cc2cccc(F)c2)S(=O)(=O)c2cscc21	RT-L100I		4.83
CC(C)=CCOc1cc(NC(=S)c2ccsc2C)ccc1Cl	RT-V179D	IIIB	6.67
CCn1c(=O)c(C)cn([C@@H]2O[C@H](CO[Si](C)(C)C(C)(C)C)C3(OS(=O)(=O)C=C3N)[C@H]2O[Si](C)(C)C(C)(C)C)c1=O	RT-L100I	IIIB TIBO R82150-resistant (RT L100I)	3
C[C@H](Cn1cnc2c(N)ncnc21)OCP(=O)(O)O	RT-K65R S68G T69I V75T Q151M	Clinical isolate DE434.4	101.2
CCc1cc(NCc2nc3c(Cl)ccc(Cl)c3o2)c(=O)[nH]c1C	RT-E138K	IIIB	43
CCN1C(=O)N(Cc2cccc(Cl)c2)S(=O)(=O)c2cscc21	RT-Y181C		>50.9
Nc1ccn([C@H]2CC[C@@H](CO)O2)c(=O)n1	RT-L100I	IIIB TIBO R82150-resistant (RT L100I)	0.36
CCn1c(=O)c(C)cn([C@@H]2O[C@H](CO[Si](C)(C)C(C)(C)C)C3(OS(=O)(=O)C=C3N)[C@H]2O[Si](C)(C)C(C)(C)C)c1=O	RT-K103N	IIIB TIBO R82913-resistant (RT K103N)	3.83
N#CCN1C(=O)N(Cc2ccccc2)S(=O)(=O)c2cscc21	RT-L100I	IIIB	6.5
CCn1c(=O)c(C)cn([C@@H]2O[C@H](CO[Si](C)(C)C(C)(C)C)C3(OS(=O)(=O)C=C3N)[C@H]2O[Si](C)(C)C(C)(C)C)c1=O	RT-Y181C	IIIB	>833
CC(C)=CCOc1cc(NC(=S)c2ccoc2C)ccc1Cl	RT-L100I	IIIB	19.44
Cc1cn([C@@H]2O[C@H](CO[Si](C)(C)C(C)(C)C)C3(OS(=O)(=O)C=C3N)[C@H]2O[Si](C)(C)C(C)(C)C)c(=O)n(C)c1=O	RT-K103N	IIIB TIBO R82913 STR-2 (RT K103N)	4
CN1C(=O)N(Cc2ccccc2)S(=O)(=O)c2cscc21	RT-Y188H	IIIB	≥141
O=C1N(Cc2ccccc2)c2cscc2S(=O)(=O)N1Cc1ccccc1	RT-K103N		>5.78
CCN1C(=O)N(Cc2ccccc2)S(=O)(=O)c2cscc21	RT-Y188H	IIIB	>207
CCc1cc(NCc2nc3c(Cl)ccc(Cl)c3o2)c(=O)[nH]c1C	RT-Y181C	IIIB E-EBU(RT-Y181C)	>1430
CC(C)=CCN1Cc2cc(Cl)cc3[nH]c(=S)n(c23)C[C@@H]1C	RT-C181I	IIIB	250

Repeating the final 3 entries:

CCN1C(=O)N(Cc2ccccc2)S(=O)(=O)c2cscc21 ; mutations: RT-Y188H ; strain or isolate: IIIB ; result: >207
CCc1cc(NCc2nc3c(Cl)ccc(Cl)c3o2)c(=O)[nH]c1C ; mutations: RT-Y181C ; strain or isolate: IIIB E-EBU(RT-Y181C) ; result: >1430
CC(C)=CCN1Cc2cc(Cl)cc3[nH]c(=S)n(c23)C[C@@H]1C ; mutations: RT-C181I ; strain or isolate: IIIB ; result: 250

Fold resistance: result on the changed form divided by that on wild type. Conditions beyond the fields shown may differ between rows.